Tested on: N-acetyl-PPT deacetylase (Deac1 protein)
Assay: Radioactive test of purified N-acetyl-PPT deacetylase (Deac1) with [14C]-N-acetyl-L-PPT, HPLC
Assay type: biochemical, Stenotrophomonas sp.

B1: N-acetyl-PPT deacetylase: deacetylase from Stenotrophomonas sp., 454 amino acids (SEQ ID NO:2), purified from E. coli as GST fusion cleavage product (protein)
chain: MIRKTVLLTALSCALASATATAAEGQRPEVEAAAARLQRQVVEWRRDFHQHPELSNREVRTAAKVAERLRAMGLQPQTGVAVHGVVAIIKGALPGPKIALRADMDALPVTEQTGLPFASTATAEYRGEKVGVMHACGHDAHTATLLGVADALVAMRDTLPGEVMLIFQPAEEGAPPPEQGGAELMLKEGLFKEFKPEAVFGLHVFSSVQAGQIAVRGGPLMAASDRFAITVNGRQTHGSAPWNGIDPIVAASDLIGTAQTIVSRRANLSKQPAVLTFGAIKGGIRYNIIPDSVEMVGTIRTFDPDMRKQIFADLRNVAEHTAAAHGATATTDIYEKDGNPATVNDPALTARMLPSLQAVVGKDNVYEPPLQMGSEDFSLYAQQVPAMFFFVGSTGAGIDPATAPSNHSPKFLLDEKALDVGLRALLQVSLDYLHGGKAG
modifications: Stenotrophomonas sp
temperature optimum (tested 28-60 °C): 37 °C
pH optimum (tested between pH=6 and 9): 8

From patent US6555733B2, “Genes coding for amino acid deacetylases with specificity for N-acetyl-L-phosphinothricin, their isolation and use” (priority 1996, dated 2003)
